Test results as given in ChEMBL document CHEMBL2046269, “Phthalide and isocoumarin derivatives produced by an Acremonium sp. isolated from a mangrove Rhizophora apiculata” (2012).
In brackets after ≈: the same amount, converted by molar mass.

Test system: Cryptococcus neoformans
Conditions: ATCC 90113

With `CC1=C[C@H]2O[C@@H]3C[C@@H](O)[C@](C)([C@@]2(C)CC1)[C@]31CO1` the MIC was 32 µg/mL (≈ 128 µM).
